Experimental data reported in publication PMC10223265 (Viruses, 2023).

System: HIV-1 BaL strain (subtype B, R5)
Assay type: cell-based
Settings: for EC50: CEMx174 5.25 M7 cells, HIV-1 BaL (subtype B, R5), mean ± SD, triplicate

| SMILES | EC50 | fold decrease in potency relative to the parent AP3 (HIV-1 Bal, EC50 ratio) |
| --- | --- | --- |
| CC[C@H](C)[C@H](NC(=O)[C@H](CO)NC(=O)[C@H](CCC(=O)O)NC(=O)[C@H](CCC(=O)O)NC(=O)[C@H](CCC(N)=O)NC(=O)[C@H](CCCCN)NC(=O)[C@H](CCCCN)NC(=O)[C@@H](NC(=O)[C@H](CCC(N)=O)NC(=O)[C@H](CCC(=O)O)NC(=O)[C@H](CCC(=O)O)NC(=O)[C@@H](NC(=O)[C@H](CCCCN)NC(=O)[C@H](CCCCN)NC(=O)[C@@H](NC(=O)[C@H](CC(C)C)NC(=O)[C@H](CCC(=O)O)NC(=O)[C@H](CCC(=O)O)NC(=O)[C@H](CO)NC(=O)[C@H](CCCCN)NC(=O)[C@H](CCCCN)NC(=O)[C@@H](NC(=O)[C@H](CC(C)C)NC(=O)[C@H](CCC(=O)O)NC(=O)[C@H](CCC(=O)O)NC(=O)[C@@H](NC(=O)[C@H](CCCCN)NC(=O)[C@H](CCCCN)NC(=O)[C@H](CC(=O)O)NC(=O)[C@H](Cc1c[nH]c2ccccc12)NC(=O)[C@H](CCC(=O)O)NC(=O)[C@H](CCC(=O)O)NC(=O)[C@H](Cc1c[nH]c2ccccc12)NC(=O)[C@@H](NC(=O)[C@H](CCSC)NC(C)=O)[C@@H](C)O)[C@@H](C)CC)[C@@H](C)CC)[C@@H](C)CC)[C@@H](C)CC)[C@@H](C)CC)C(=O)N[C@@H](CCCCN)C(=O)N[C@@H](CCCCN)C(=O)N[C@@H](CCCCNC(=O)CCOCCOCCOCCOCCOCCOCCOCCOCCOCCOCCOCCOCCOCCOCCOCCOCCOCCOCCOCCOCCOCCOCCOCCOCCNC(=O)COCC(=O)N1CCC(C(=O)N(CCCN2CCC(Cc3ccc(C(N)=O)cc3)CC2)c2ccc(C)c(Cl)c2)CC1)C(N)=O [AP3P24W] | 8.98 ± 0.91 nM | – |
| CC[C@H](C)[C@H](NC(=O)[C@H](CO)NC(=O)[C@H](CCC(=O)O)NC(=O)[C@H](CCC(=O)O)NC(=O)[C@H](CCC(N)=O)NC(=O)[C@H](CCCCN)NC(=O)[C@H](CCCCN)NC(=O)[C@@H](NC(=O)[C@H](CCC(N)=O)NC(=O)[C@H](CCC(=O)O)NC(=O)[C@H](CCC(=O)O)NC(=O)[C@@H](NC(=O)[C@H](CCCCN)NC(=O)[C@H](CCCCN)NC(=O)[C@@H](NC(=O)[C@H](CC(C)C)NC(=O)[C@H](CCC(=O)O)NC(=O)[C@H](CCC(=O)O)NC(=O)[C@H](CO)NC(=O)[C@H](CCCCN)NC(=O)[C@H](CCCCN)NC(=O)[C@@H](NC(=O)[C@H](CC(C)C)NC(=O)[C@H](CCC(=O)O)NC(=O)[C@H](CCC(=O)O)NC(=O)[C@@H](NC(=O)[C@H](CCCCN)NC(=O)[C@H](CCCCN)NC(=O)[C@H](CC(=O)O)NC(=O)[C@H](Cc1c[nH]c2ccccc12)NC(=O)[C@H](CCC(=O)O)NC(=O)[C@H](CCC(=O)O)NC(=O)[C@H](Cc1c[nH]c2ccccc12)NC(=O)[C@@H](NC(=O)[C@H](CCSC)NC(C)=O)[C@@H](C)O)[C@@H](C)CC)[C@@H](C)CC)[C@@H](C)CC)[C@@H](C)CC)[C@@H](C)CC)C(=O)N[C@@H](CCCCN)C(=O)N[C@@H](CCCCN)C(=O)N[C@@H](CCCCNC(=O)COCC(=O)N1CCC(C(=O)N(CCCN2CCC(Cc3ccc(C(N)=O)cc3)CC2)c2ccc(C)c(Cl)c2)CC1)C(N)=O [AP3W] | – | 8.4 fold |
| CC[C@H](C)[C@H](NC(=O)[C@H](CO)NC(=O)[C@H](CCC(=O)O)NC(=O)[C@H](CCC(=O)O)NC(=O)[C@H](CCC(N)=O)NC(=O)[C@H](CCCCN)NC(=O)[C@H](CCCCN)NC(=O)[C@@H](NC(=O)[C@H](CCC(N)=O)NC(=O)[C@H](CCC(=O)O)NC(=O)[C@H](CCC(=O)O)NC(=O)[C@@H](NC(=O)[C@H](CCCCN)NC(=O)[C@H](CCCCN)NC(=O)[C@@H](NC(=O)[C@H](CC(C)C)NC(=O)[C@H](CCC(=O)O)NC(=O)[C@H](CCC(=O)O)NC(=O)[C@H](CO)NC(=O)[C@H](CCCCN)NC(=O)[C@H](CCCCN)NC(=O)[C@@H](NC(=O)[C@H](CC(C)C)NC(=O)[C@H](CCC(=O)O)NC(=O)[C@H](CCC(=O)O)NC(=O)[C@@H](NC(=O)[C@H](CCCCN)NC(=O)[C@H](CCCCN)NC(=O)[C@H](CC(=O)O)NC(=O)[C@H](Cc1c[nH]c2ccccc12)NC(=O)[C@H](CCC(=O)O)NC(=O)[C@H](CCC(=O)O)NC(=O)[C@H](Cc1c[nH]c2ccccc12)NC(=O)[C@@H](NC(=O)[C@H](CCSC)NC(C)=O)[C@@H](C)O)[C@@H](C)CC)[C@@H](C)CC)[C@@H](C)CC)[C@@H](C)CC)[C@@H](C)CC)C(=O)N[C@@H](CCCCN)C(=O)N[C@@H](CCCCN)C(N)=O [AP3] | 0.75 ± 0.22 nM | – |
